PubChem BioAssay AID1224833 | University of Georgia, 2016
Here is one part, drawn at random, of about 12,000 deposited reagents. In the full data, about 5,600 (46%) are marked active. 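Active calls cover z-scores past 1 in both directions, so they include lowered as well as raised rotavirus replication.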 No sequences are given here.

Purpose: 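Host factors restraining rotavirus as candidate antiviral genes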 (primary screen)
Cells: monkey MA104 kidney cells
Reagent: siRNA pool against human genes, 50 nM
Time to read-out: 48 h knock-down before infection; read 24 h after infection
Treatment: infection with rotavirus strain RV3 two days after transfection; infectious dose for this stage not given
Detection: 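z-score of rotavirus antigen signal per well, from a fluorescent immunoassay, relative to non-targeting control wells on the same plate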
Scale: z-score vs non-targeting control: higher = more rotavirus replication than with non-targeting control
Rule for the call: In these data the active calls have z-score vs non-targeting control at about -1 or lower, or at about 1 or higher
Meaning of the calls: active = z-score beyond 1 either way; inactive = z-score within 1 of zero

The first 4 records, ahead of the listing:
no.	gene knocked down	z-score vs non-targeting control	Outcome
1	TES	-3.06	active
2	SAMD9L	-0.189	inactive
3	PDE6G	0.568	inactive
4	NUP93	-0.315	inactive

Main list, from the first entry:
no.	gene knocked down	z-score vs non-targeting control	Outcome
1	TES	-3.06	active
2	SAMD9L	-0.189	inactive
3	PDE6G	0.568	inactive
4	NUP93	-0.315	inactive
5	DPH6	-1.36	active
6	TNFSF18	-0.335	inactive
7	EIF2B3	-1.92	active
8	PCDH7	-0.688	inactive
9	CYP2U1	-1.15	active
10	NCS1	-2.09	active
11	HDLBP	-1.41	active
12	INVS	0.914	inactive
13	S1PR5	1.94	active
14	CHAC2	-1.67	active
15	CALHM4	-2.14	active
16	KPRP	-1.35	active
17	CDC42SE1	-0.66	inactive
18	ATF4	-3.43	active
19	EIF4EBP2	0.472	inactive
20	C20orf141	-0.205	inactive
21	GPATCH2	1.51	active
22	SUN3	0.693	inactive
23	COL19A1	-0.937	inactive
24	TBPL1	-0.573	inactive
25	RAB19	-1.31	active
26	CHPT1	1.1	active
27	XAF1	0.15	inactive
28	GPR37	0.685	inactive
29	SGO1	1.48	active
30	UNC93B1	-2.13	active
31	WDR5	-0.495	inactive
32	TIMM23	-1.77	active
33	SIL1	-1.35	active
34	ADAMDEC1	-0.517	inactive
35	ACSM6	-0.919	inactive
36	PLEK	-1.01	active
37	ADM2	-0.382	inactive
38	DNAH10	-0.385	inactive
39	SNX17	-0.516	inactive
40	ALCAM	-1.64	active
41	CDHR1	-0.72	inactive
42	ZNF563	-0.925	inactive
43	TAB2	0.113	inactive
44	MYOF	-1.75	active
45	LRIT3	3.44	active
